Measured values from patent EP0303681B1 (priority 1987, dated 1988).

Test: Pharmacokinetics / disposition of cyclophosphamide
Settings: six patients, XMMME-001-RTA 0.1 mg/kg/day x 5 days in conjunction with cyclophosphamide IV push

## O=P1(N(CCCl)CCCl)NCCCO1 (stereo not shown)
  interaction between the immunotoxin and cyclophosphamide in their distribution, metabolism or excretion: no noticeable interaction
